Assay results taken from paper PMC8561388 (mBio, 2021).

System: OP^neon/F-[…]
Test: Inhibition of compound 3-escape mutant virus
Conditions: Vero-cSLAM cells

Compound | sensitivity of compound 3-escape mutant virus
CC1(C)Cc2cccc(OCC(=O)Nc3nc4ccccc4s3)c2O1 [compound 1] | highly sensitive
N#Cc1cccc(NC(=O)Cc2ccccc2)c1 [compound 3, reference compound] | successfully escaped
